# Share of PSTVd loop 15 variants by leaf site

Values reported by Wu et al. 2024 (doi:10.1371/journal.ppat.1012142).

PSTVd intermediate strain, loop 15: wild type GGAAACCGCUACUAC, pool pattern GGAAACCGNNNNNNC; upper and lower strand joined, each 5' to 3', the first 7 letters being the upper strand, closing pairs included.

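A pool of all variants was put on leaves of three Nicotiana benthamiana plants. Progeny were sequenced from the inoculated region (day 5), the margin of the inoculated leaf (day 10) and systemic leaves (day 12).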

Values are reads per thousand in the sample; higher means more abundant, 0 means not found.
Each value is the mean of three plants.
"Pool" is the share in the plasmid pool used as inoculum, on the same scale.
The inoculated region was read from the minus strand, the other sites from the plus strand.
IR is the inoculated region, LM the leaf margin, Sys the systemic leaves.
Samples held 43,870 to 66,106 reads, so the smallest values rest on one or two reads.
The authors trace changes outside the varied positions to PCR and sequencing errors or to mutation in the plant; presence does not show that a variant is infectious alone.
Wild type was 33.9 per thousand in the pool and the most common sequence in every sample (inoculated region 202, 200, 159; leaf margin 724, 746, 710; systemic leaves 856, 883, 880).

GGAAACCGUGGGGUC (pool 0.272) read IR 0.106; LM 0.0128; Sys 0. With GGAAACCGCUUAGAC (pool 0.240) the assay gave IR 0.0950; LM 0.00539; Sys 0.00537. With GGAAACCGGUUUUCC (pool 0.272) the assay gave IR 0.103; LM 0.00539; Sys 0. GGAAACCGAUGCUAC (pool 0.288) read IR 0.320; LM 0.163; Sys 0.0215. For GGAAACCGGCUGCGC (pool 0.256) the result was IR 0.0450; LM 0.0195; Sys 0. For GGAAACCGUCAAACC (pool 0.320) the result was IR 0.153; LM 0; Sys 0. GGAAACCGAGGCUGC (pool 0.256) read IR 0.238; LM 0.00742; Sys 0.0107. For GGAAACCGAGCUAUC (pool 0.272) the result was IR 0.0848; LM 0.0208; Sys 0.

GGAAACCGUGGGAGC (pool 0.224) read IR 0.117; LM 0.00742; Sys 0. GGAAACCGUUACCUC (pool 0.112) read IR 0.335; LM 0.122; Sys 0.0742. For GGAAACCGCUUGUUC (pool 0.272) the result was IR 0.352; LM 0.0962; Sys 0.0556. GGAAACCGGGCAAGC (pool 0.256) read IR 0.0776; LM 0; Sys 0. For GGAAACCGAACUUUC (pool 0.192) the result was IR 0.311; LM 0.0141; Sys 0. GGAAACCGCCCAUUC (pool 0.224) gave IR 0.354; LM 0.0939; Sys 0.0483. For GGAAACCGAGUACAC (pool 0.256) the result was IR 0.0741; LM 0.0223; Sys 0. With GGAAACCGCCGGCAC (pool 0.224) the assay gave IR 0.114; LM 0.00668; Sys 0.

GGAAACCGAGAAACC (pool 0.256) gave IR 0.0972; LM 0.00539; Sys 0.0211. With GGAAACCGAUGAUUC (pool 0.192) the assay gave IR 0.0634; LM 0; Sys 0.00537. For GGAAACCGCCGCAGC (pool 0.192) the result was IR 0.0590; LM 0; Sys 0. For GGAAACCGGAAACGC (pool 0.240) the result was IR 0.0556; LM 0.00742; Sys 0. For GGAAACCGUAUCGCC (pool 0.176) the result was IR 0.0939; LM 0.0187; Sys 0. With GGAAACCGGCUACCC (pool 0.176) the assay gave IR 0.108; LM 0.0134; Sys 0. For GGAAACCGCGAUGAC (pool 0.176) the result was IR 0.0859; LM 0.0141; Sys 0. GGAAACCGGAGACAC (pool 0.288) read IR 0.109; LM 0.00668; Sys 0.

GGAAACCGUCAUGUC (pool 0.256) gave IR 0.0677; LM 0.0121; Sys 0. For GGAAACCGAUUAUGC (pool 0.176) the result was IR 0.0738; LM 0.0249; Sys 0. With GGAAACCGUCAUCCC (pool 0.240) the assay gave IR 0.103; LM 0.00668; Sys 0.

A selection of 2 entries from above:

sequence,pool,IR,LM,Sys
GGAAACCGGCUGCGC,0.256,0.0450,0.0195,0
GGAAACCGCUUAGAC,0.240,0.0950,0.00539,0.00537